# Assay results reported in ChEMBL document CHEMBL1687745 (Antimicrob Agents Chemother, 2009).
# Assays:
# [1] = tested on: Bacillus anthracis; test: Bactericidal activity against Bacillus anthracis Sterne vegetative forms assessed as reduction in bacterial CFU at 4 X MIC after 24 hrs by time-kill analysis relative to untreated control
# [2] = tested on: Bacillus anthracis; test: Antimicrobial activity against Bacillus anthracis Sterne spores by broth microdilution method; type: functional
# [3] = tested on: Yersinia pestis; test: Bactericidal activity against pgm, pCD1 gene-deficient Yersinia pestis KIM assessed as reduction in bacterial CFU at 4 X MIC after 24 hrs by time-kill analysis relative to untreated control
# [4] = tested on: Bacillus anthracis; test: Antimicrobial activity against Bacillus anthracis Ames spores by broth microdilution method
Structure (SMILES),fold change (FC) [1],MIC [2],fold change (FC) [3],MIC [4],MBC [4]
c1cc2cc(-c3ccc(-c4cc5ccc(C6=NCCN6)cc5[nH]4)cc3)[nH]c2cc1C1=NCCN1,>=3,0.2 µg/mL,>=3,0.2 µg/mL,–
C(=C\c1cc2ccc(C3=NCCN3)cc2[nH]1)/c1cc2ccc(C3=NCCN3)cc2[nH]1,>=3,–,>=3,–,1.6 µg/mL
